# According to patent publication US7695930B2, “Method for the detection, identification and/or quantification of microoganisms with peptidase activity using phenoxazinone derivatives as enzyme substrates” (Biomerieux, priority 2003, dated 2010):
# What was measured:
# Test in all cases: Leucine-peptidase detection on agar medium (Example 11)
# Assay type in all cases: cell-based
# Citrobacter freundii = test system: Citrobacter freundii
# Description: (§1) The detection medium was prepared by mixing 1.4 g of biogelytone (bioMérieux), 0.84 g of meat extract (bioMérieux), 2.24 g of NaCl (Merck), 280 μl of a solution of IPTG (isopropylthio-β-D-galactopyranoside, BIOSYNTH) in water (concentration 10 g/l) and 4.2 g of European agar (bioMérieux).
# (§2) The substrate of the invention obtained in Example 2, in which the amino acid is leucine (leucine-9-aminobenzo[a]phenoxazin-5-one or Leu-ABP), or else a substrate of the prior art, which is leucine-aminomethylcoumarin (Leu-AMC, BACHEM), was then added in the following way: 280 ml of osmosed water were added to the medium, and the mixture was melted in a waterbath at 100° C. The mixture was autoclaved for 15 min at 121° C. and cooled to 50° C. in a waterbath.
# (§3) The medium was then poured into Petri dishes.
# (§4) The coloration of these colonies, the diffusion, and also the intensity of this coloration were noted.
# (§5) The results were expressed as intensity of coloration using an arbitrary scale ranging from 0 to 4 as a basis and also as diffusion also using an arbitrary scale ranging from 0 to 4 as a basis.
# Enterobacter cloaccae = test system: Enterobacter cloaccae
# Description: as §1, §2, §3, §4, §5
# Enterococcus faecalis = test system: Enterococcus faecalis
# Description: as §1, §2, §3, §4, §5
# Klebsellia pneumoniae = test system: Klebsellia pneumoniae
# Description: as §1, §2, §3, §4, §5
# Pseudomonas aeruginosa = test system: Pseudomonas aeruginosa
# Description: as §1, §2, §3, §4, §5
# Serratia marcescens = test system: Serratia marcescens
# Description: as §1, §2, §3, §4, §5
# Candida albicans = conditions: 50 mg/l
# Description: as §1, §2, §3, §4, §5
# Escherichia coli = conditions: 50 mg/l
# Description: as §1, §2, §3, §4, §5
# Staphylococcus aureus = conditions: 50 mg/l
# Description: as §1, §2, §3, §4, §5
compound,measurement,setting,value
leucine-9-aminobenzo[a]phenoxazin-5-one [Leu-ABP],"diffusion, scale 0 to 4","Citrobacter freundii; 24 h, 25 mg/l",0.5
same,"diffusion, scale 0 to 4","Citrobacter freundii; 24 h, 50 mg/l",0.5
same,"diffusion, scale 0 to 4","Citrobacter freundii; 48 h, 25 mg/l",0.5
same,"diffusion, scale 0 to 4","Citrobacter freundii; 48 h, 50 mg/l",0.75
same,"diffusion, scale 0 to 4","Citrobacter freundii; 48 h, 100 mg/l",0.25
same,"diffusion, scale 0 to 4","Enterobacter cloaccae; 24 h, 25 mg/l",0.5
same,"diffusion, scale 0 to 4","Enterobacter cloaccae; 24 h, 50 mg/l",0.5
same,"diffusion, scale 0 to 4","Enterobacter cloaccae; 48 h, 25 mg/l",0.5
same,"diffusion, scale 0 to 4","Enterobacter cloaccae; 48 h, 50 mg/l",0.75
same,"diffusion, scale 0 to 4","Enterobacter cloaccae; 48 h, 100 mg/l",0.25
same,"diffusion, scale 0 to 4","Enterococcus faecalis; 24 h, 25 mg/l",0.25
same,"diffusion, scale 0 to 4","Enterococcus faecalis; 24 h, 50 mg/l",0.25
same,"diffusion, scale 0 to 4","Enterococcus faecalis; 48 h, 25 mg/l",0.25
same,"diffusion, scale 0 to 4","Enterococcus faecalis; 48 h, 50 mg/l",0.25
same,"diffusion, scale 0 to 4","Enterococcus faecalis; 48 h, 100 mg/l",0.0
same,"diffusion, scale 0 to 4","Klebsellia pneumoniae; 24 h, 25 mg/l",0.25
same,"diffusion, scale 0 to 4","Klebsellia pneumoniae; 24 h, 50 mg/l",0.5
same,"diffusion, scale 0 to 4","Klebsellia pneumoniae; 48 h, 25 mg/l",0.25
same,"diffusion, scale 0 to 4","Klebsellia pneumoniae; 48 h, 50 mg/l",0.75
same,"diffusion, scale 0 to 4","Klebsellia pneumoniae; 48 h, 100 mg/l",0.0
same,"diffusion, scale 0 to 4","Pseudomonas aeruginosa; 48 h, 25 mg/l",0.5
same,"diffusion, scale 0 to 4","Pseudomonas aeruginosa; 48 h, 50 mg/l",1
same,"diffusion, scale 0 to 4","Pseudomonas aeruginosa; 48 h, 100 mg/l",0.5
same,"diffusion, scale 0 to 4","Pseudomonas aeruginosa; 48 h, 200 mg/l",0.3
same,"diffusion, scale 0 to 4","Serratia marcescens; 48 h, 25 mg/l",0.5
same,"diffusion, scale 0 to 4","Serratia marcescens; 48 h, 50 mg/l",0.5
same,"diffusion, scale 0 to 4","Serratia marcescens; 48 h, 100 mg/l",0.0
"Cc1cc(=O)oc2cc(NC(=O)[C@@H](N)CC(C)C)ccc12 [Leu-AMC, leucine-aminomethylcoumarin, reference compound]","diffusion, scale 0 to 4",Candida albicans; 24 h,4
same,"diffusion, scale 0 to 4",Candida albicans; 48 h,4
same,"diffusion, scale 0 to 4","Citrobacter freundii; 24 h, 50 mg/l",4
same,"diffusion, scale 0 to 4","Citrobacter freundii; 48 h, 50 mg/l",4
same,"diffusion, scale 0 to 4","Enterobacter cloaccae; 24 h, 50 mg/l",4
same,"diffusion, scale 0 to 4","Enterobacter cloaccae; 48 h, 50 mg/l",4
same,"diffusion, scale 0 to 4","Enterococcus faecalis; 24 h, 50 mg/l",4
same,"diffusion, scale 0 to 4","Enterococcus faecalis; 48 h, 50 mg/l",4
same,"diffusion, scale 0 to 4",Escherichia coli; 24 h,4
same,"diffusion, scale 0 to 4",Escherichia coli; 48 h,4
same,"diffusion, scale 0 to 4","Klebsellia pneumoniae; 24 h, 50 mg/l",4
same,"diffusion, scale 0 to 4","Klebsellia pneumoniae; 48 h, 50 mg/l",4
same,"diffusion, scale 0 to 4","Pseudomonas aeruginosa; 24 h, 50 mg/l",4
same,"diffusion, scale 0 to 4","Pseudomonas aeruginosa; 48 h, 50 mg/l",4
same,"diffusion, scale 0 to 4","Serratia marcescens; 24 h, 50 mg/l",4
same,"diffusion, scale 0 to 4","Serratia marcescens; 48 h, 50 mg/l",4
same,"diffusion, scale 0 to 4",Staphylococcus aureus; 24 h,4
same,"diffusion, scale 0 to 4",Staphylococcus aureus; 48 h,4
